Here are results for 92 compounds from PubChem BioAssay AID2629 (Broad Institute, 2010).

Protein sequences, listed by entry. Tags and fused reporters are not part of them.
UniProt Q9QR71, whole entry: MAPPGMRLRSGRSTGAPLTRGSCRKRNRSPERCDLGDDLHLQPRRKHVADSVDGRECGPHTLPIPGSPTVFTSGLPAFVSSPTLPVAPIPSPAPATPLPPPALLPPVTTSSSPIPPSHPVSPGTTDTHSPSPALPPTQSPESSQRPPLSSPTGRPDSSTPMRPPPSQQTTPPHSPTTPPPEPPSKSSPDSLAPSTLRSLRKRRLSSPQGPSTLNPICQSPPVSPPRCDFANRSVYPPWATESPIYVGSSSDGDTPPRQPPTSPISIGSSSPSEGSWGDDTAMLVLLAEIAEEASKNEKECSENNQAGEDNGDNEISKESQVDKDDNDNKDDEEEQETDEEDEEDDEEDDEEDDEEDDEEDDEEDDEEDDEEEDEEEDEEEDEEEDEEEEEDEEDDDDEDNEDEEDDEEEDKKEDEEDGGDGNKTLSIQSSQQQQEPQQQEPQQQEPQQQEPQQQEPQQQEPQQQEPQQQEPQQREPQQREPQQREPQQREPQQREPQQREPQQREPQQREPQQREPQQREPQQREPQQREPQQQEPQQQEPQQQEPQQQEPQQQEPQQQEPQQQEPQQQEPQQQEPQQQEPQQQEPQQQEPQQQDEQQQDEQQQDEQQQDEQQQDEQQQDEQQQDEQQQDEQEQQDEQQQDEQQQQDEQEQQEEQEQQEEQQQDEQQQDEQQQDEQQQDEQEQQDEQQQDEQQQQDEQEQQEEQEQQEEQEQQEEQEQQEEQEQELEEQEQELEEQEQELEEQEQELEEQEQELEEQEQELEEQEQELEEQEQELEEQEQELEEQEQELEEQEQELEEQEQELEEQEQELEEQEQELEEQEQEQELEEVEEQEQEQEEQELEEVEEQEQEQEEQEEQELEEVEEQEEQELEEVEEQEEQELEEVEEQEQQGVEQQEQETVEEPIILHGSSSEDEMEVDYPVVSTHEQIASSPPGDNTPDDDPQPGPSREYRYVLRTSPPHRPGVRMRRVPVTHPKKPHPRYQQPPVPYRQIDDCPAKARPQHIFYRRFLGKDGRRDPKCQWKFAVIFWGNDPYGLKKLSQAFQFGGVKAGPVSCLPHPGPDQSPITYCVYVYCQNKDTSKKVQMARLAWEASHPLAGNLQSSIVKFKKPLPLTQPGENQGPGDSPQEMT

The entries are a selection whose mix differs from that of the whole data set. Active and inactive are the calls of the source. Rule as the data show it: active = inhibition mostly above about 10% (no sharp cut-off); inactive = mostly below about 6.7%.

In this test the target is Protein LANA1 (Human herpesvirus 8 type P (isolate GK18)) (UniProt Q9QR71). The test is described as follows: blockers of LANA interaction with H2A/H2B – biochemical, FP readout, HTS, primary screen (AID 2629). The note with it: cell-free LANA-H2A/H2B peptide, fluorescence polarization; hits give high values; concentration not given here.
The inhibition is the change of the read-out against control, counted positive when it falls. As to `COP1(=S)c2c(C)nn(CCC#N)c2N=C(c2ccc(F)cc2)N1C` (configuration not stated), the inhibition is inactive: -3.27%.
Take `CP(=O)(Nc1ccc(SC(F)(F)F)cc1)Oc1ccc(Cl)cc1` (configuration not stated): the inhibition is inactive: -5.98%.
Regarding `Cc1cccc(C)c1OP(C)(=O)Nc1ccc(SC(F)(F)F)cc1` (configuration not stated), the inhibition is inactive: -3.3%.
With `CP(=O)(Oc1ccccc1)OC(c1ccccc1)C(F)(F)F` (configuration not stated), the inhibition was inactive: -0.169%.
In the case of `CP(=O)(NC(=O)Nc1ccccc1)Oc1ccccc1` (configuration not stated), the inhibition is inactive: -1.92%.
On to `O=C(COc1ccccc1)OC1CN2CCC1CC2` (configuration not stated), for which the inhibition is inactive: -0.136%.
Turning to `CCc1ccc(OP(C)(=O)N2CCN(c3ccc([N+](=O)[O-])cc3)CC2)cc1` (configuration not stated), the inhibition was inactive: -8.48%.
`O=C(Nc1ccncc1[N+](=O)[O-])c1ccc([N+](=O)[O-])cc1[N+](=O)[O-]`: the inhibition is inactive: 1.8%.
As to `Cc1cc(C)cc(OP(C)(=O)Nc2ccc(SC(F)(F)F)cc2)c1` (configuration not stated), the inhibition was inactive: -2.92%.
Regarding `O=C(OC1CN2CCC1CC2)c1cccc([N+](=O)[O-])c1` (configuration not stated), the inhibition was inactive: 1.16%.
The same measure for `CCOP(C)(=S)SCC(=O)NC(C)C(=O)O` (configuration not stated): inactive: -4.2%; for `O=[N+]([O-])c1cc([N+](=O)[O-])c(O)c([N+](=O)[O-])c1.c1ccc(Oc2ccncc2)cc1`: inactive: 3.01%; for `CCOC(=O)c1ccc(NC(=O)C(C)(CCl)SC)cc1` (configuration not stated): inactive: 0.773%.
As for `CCOC(=O)c1ccc(NP(C)(=O)Oc2ccc(OC)cc2)cc1` (configuration not stated), the inhibition was inactive: -4.22%.
As to `CCC(C)N(CC(C)C)C(=S)SC(NC(C)=O)C(Cl)(Cl)Cl` (configuration not stated), the inhibition is inactive: 1.89%.
`CP(=O)(Nc1ccccn1)Oc1ccc(Cl)cc1` (configuration not stated): the inhibition is inactive: 0.908%.
Regarding `CCOC(=O)Nc1ccc([As](=O)(O)O)c(O)c1`, the inhibition was inactive: -1.48%.
For `Cc1cc(SC(NC(=O)c2ccccc2)C(Cl)(Cl)Cl)nc(C(C)C)n1` (configuration not stated), the inhibition was inactive: -1.29%.
With `CP(=S)(Nn1cnnc1)Oc1ccccc1` (configuration not stated), the inhibition was inactive: 0.59%.
In the case of `CCOC(=O)Nc1cccc([As](=O)(O)O)c1`, the inhibition is inactive: -1.11%.
Take `Cc1cc(SC(NC=O)C(Cl)(Cl)Cl)ncn1` (configuration not stated): the inhibition was inactive: -1.17%.
Regarding `O=P(Nc1ccccn1)(c1cccc2ccccc12)c1cccc2ccccc12`, the inhibition was inactive: 1.16%.
`COc1ccccc1OP(C)(=O)Nc1ccccc1` (configuration not stated): the inhibition was inactive: 3.09%.
With `CP(=O)(Nc1ccccc1Br)Oc1ccccc1` (configuration not stated), the inhibition was inactive: 10%.
Turning to `O=[N+]([O-])c1ccc(Nc2ccc(Oc3ccc([N+](=O)[O-])cc3[N+](=O)[O-])cc2)c([N+](=O)[O-])c1`, the inhibition was inactive: 2.31%.
On to `O=[N+]([O-])c1cc([N+](=O)[O-])c(Nc2cccnc2)c([N+](=O)[O-])c1`, for which the inhibition was inactive: -5.64%.
For `C[As](=O)(O)c1cccc(C(=O)O)c1`, the inhibition was inactive: 0.413%.
With `O=[As](O)(c1ccc(O)cc1)c1ccccc1O` the figure was inactive: 5.96%; with `COc1cc(C(=O)NCC2(N3CCOCC3)CCCCC2)ccc1OCC(C)C`, inactive: -0.769%; with `Cc1ccc(OP(=O)(Nc2ccc([N+](=O)[O-])cn2)Oc2ccc(C)cc2)cc1`, inactive: -0.0967%.
For the compound `CC(C)(C)c1ccc(OP(C)(=O)Nc2ccc(SC(F)(F)F)cc2)cc1` (configuration not stated), the inhibition was inactive: -2.05%.
`O=[N+]([O-])c1ccc2c(c1)C=Nc1ccccc1O2`: the inhibition is inactive: 4.02%.
`Cc1ccc2nc3c(c(C)c2c1)CC(C(Cl)Cl)S3` (configuration not stated): the inhibition is inactive: 1.51%.
In the case of `CCOC(=O)c1ccc(NP(C)(=O)Oc2ccccc2)cc1` (configuration not stated), the inhibition was inactive: -2.77%.
Take `ClCCSc1nnc(-c2cccnc2)o1`: the inhibition was inactive: 1.56%.
As for `COc1ccccc1OP(C)(=O)Nc1ccc(C)cc1` (configuration not stated), the inhibition is inactive: 1.93%.
As to `CC(C)c1ccc(OP(=O)(Nc2ccccn2)Oc2ccccc2F)cc1` (configuration not stated), the inhibition was inactive: -14.2%.
Consider `Cc1ccc(NP(C)(=O)Oc2ccccc2)c(C)c1` (configuration not stated), for which the inhibition is inactive: 8.81%.
Take `CC(C)NC(=O)NP(=O)(Oc1ccccc1)Oc1ccccc1`: the inhibition is inactive: 0.177%.
Regarding `COc1ccccc1OP(C)(=O)Nc1cc(Cl)ccc1C` (configuration not stated), the inhibition is inactive: 2.15%.
With `CCN(CC)C(=S)SC(NC=O)C(Cl)(Cl)Cl` (configuration not stated) the figure was inactive: -4.19%.
On to `COc1ccc(OP(C)(=O)Nc2cccc(F)c2)cc1` (configuration not stated), for which the inhibition was inactive: 3.55%.
With `O=[N+]([O-])c1cc([N+](=O)[O-])c(-c2ccn[nH]2)s1` the figure was inactive: -0.476%.
Take `Cc1cc(C)cc(OP(C)(N)=O)c1` (configuration not stated): the inhibition is inactive: 1.09%.
Regarding `Cc1c2c(nc3ccccc13)SC(C(Cl)Cl)C2` (configuration not stated), the inhibition is inactive: 5.96%.
With `O=C(OC1CN2CCC1CC2)C12CC3CC(CC(C3)C1)C2` (configuration not stated) the figure was inactive: 2.83%; with `CCN(CC)CCCOC(=O)C(O)(c1ccccc1)c1ccccc1`, inactive: 0.642%.
On to `Cc1cc(=O)[nH]c(N[N+](=O)[O-])n1`, for which the inhibition was inactive: 1.69%.
The same measure for `COc1ccc2nc(NP(=O)(c3ccccc3)c3ccccc3)sc2c1`: inactive: -0.216%.
On to `COc1cc(I)ccc1[As](=O)(O)O`, for which the inhibition was inactive: -1.56%.
In the case of `COc1ccc(N/C(=N/P(=O)(N2CCOCC2)N2CCOCC2)N2CCOCC2)cc1`, the inhibition is inactive: 2.33%.
The same measure for `O=C(OC1CN2CCC1CC2)c1ccc(Cl)cc1` (configuration not stated): inactive: 3.8%; for `O=[As](O)(O)c1cccnc1`: inactive: -6.06%.
With `COc1cc(C(=O)NCC2(N3CCOCC3)CCCCC2)cc(Cl)c1OC(C)C`, the inhibition is inactive: -0.678%.
In the case of `CS(=O)(=O)c1ccc(Cl)c(NC(=O)COC(=O)C(O)(c2ccccc2)c2ccccc2)c1`, the inhibition was inactive: 1.42%.
As to `COc1ccccc1OP(C)(=O)Nc1cccc(Br)c1` (configuration not stated), the inhibition was inactive: 7.57%.
With `Cc1cccc(OCC(=O)OC2CN3CCC2CC3)c1` (configuration not stated) the figure was inactive: -1.93%; with `O=[As](O)(c1cccc(O)c1)c1cccc(O)c1`, inactive: -1.49%; with `Cc1cc(C)cc(OP(C)(=O)Nc2ccc(C)cc2C)c1` (configuration not stated), inactive: -6.23%.
Consider `CCOC(=O)c1ccc(NP(C)(=O)Oc2cc(C)cc(C)c2)cc1` (configuration not stated), for which the inhibition is inactive: -3.89%.
Take `Cc1cc(C)cc(OP(C)(=O)Nc2ccccn2)c1` (configuration not stated): the inhibition was inactive: 3.2%.
With `CP(=O)(Nc1cccc(Br)c1)Oc1ccccc1` (configuration not stated), the inhibition was inactive: -4.65%.
Turning to `Nc1cccc2c([As](=O)(O)O)cccc12`, the inhibition was inactive: -5.44%.
As for `Cc1ccc(NCCc2c([N+](=O)[O-])cc([N+](=O)[O-])cc2[N+](=O)[O-])cc1`, the inhibition is inactive: 4.15%.
The same measure for `Cc1ccc(C)c(NP(C)(=O)Oc2ccccc2)c1` (configuration not stated): inactive: -1.92%; for `CCCOP(=S)(Nc1nc(N)cc(=O)[nH]1)OCCC`: inactive: -2.25%; for `CCOP(=O)(Nc1cccc2ccccc12)OCC`: inactive: 2.17%.
With `O=C(O)c1cccc(Nc2c([N+](=O)[O-])cc([N+](=O)[O-])cc2[N+](=O)[O-])c1` the figure was inactive: -2.52%; with `CCOP1(=S)c2c(C)nn(CCC#N)c2N=C(c2ccccc2F)N1C` (configuration not stated), inactive: -2.86%.
Take `O=P(Nc1nccs1)(Oc1ccccc1)Oc1ccccc1`: the inhibition was inactive: -2.47%.
As to `O=P(Nc1nccs1)(c1ccccc1)c1nc2ccccc2s1` (configuration not stated), the inhibition was inactive: -8.38%.
Regarding `CS(=O)(=O)c1cc([N+](=O)[O-])c2no[n+]([O-])c2c1`, the inhibition was inactive: 18.8%.
`O=C(O)COc1ccc([As](=O)(O)O)cc1[N+](=O)[O-]`: the inhibition was inactive: 7.85%.
On to `Nc1ccccc1[As](=O)(O)c1ccccc1`, for which the inhibition is inactive: 6.73%.
For `NC(=O)Nc1ccc([As](=O)(O)O)cc1`, the inhibition was inactive: -4.59%.
With `N#CCCN(C(=O)COC(=O)C(O)(c1ccccc1)c1ccccc1)c1ccc(F)cc1`, the inhibition is inactive: 0.449%.
With `CN(C(=O)Cc1ccccc1)[C@@H]1CC[C@]2(CCCO2)C[C@H]1N1CCCC1` the figure was inactive: 1.71%; with `CCOP1(=S)c2c(C)nn(CCC#N)c2N=C(c2ccc(F)cc2)N1C` (configuration not stated), inactive: -3.4%.
Take `O=[N+]([O-])c1ccc2c(c1)nnn2O`: the inhibition was inactive: -0.375%.
As for `CN(C)C(=O)c1cc([N+](=O)[O-])cc2c1-c1c(cc([N+](=O)[O-])cc1[N+](=O)[O-])C2=O`, the inhibition was inactive: 4.61%.
Consider `CC1=NCCc2c1[nH]c1ccccc21.O=[N+]([O-])c1cc([N+](=O)[O-])c(O)c([N+](=O)[O-])c1`, for which the inhibition is inactive: 0.561%.
With `CN(C(=O)Cc1ccc(Cl)c(Cl)c1)[C@H]1CC[C@@]2(CCCO2)C[C@@H]1N1CCCC1` the figure was inactive: -1.71%.
With `Cc1nn(-c2ccccc2)c2c1P(=O)(N1CCOCC1)N(C)C(c1ccccc1)=N2` (configuration not stated) the figure was inactive: 6.31%; with `Cc1ccc(C(=O)OC2CN3CCC2CC3)cc1` (configuration not stated), inactive: -3.26%; with `CC1CCC(C(C)C)C(OP(=O)(Nc2ccccn2)c2ccccc2)C1` (configuration not stated), inactive: -0.163%.
Consider `COc1cc(C2NCCC3(OCCO3)C2(C)C)cc(OC)c1OC.O=[N+]([O-])c1cc([N+](=O)[O-])c(O)c([N+](=O)[O-])c1` (configuration not stated), for which the inhibition was inactive: -3.33%.
With `CC1=C2N=C(C=C3N=C(C(C)=C4[N-][C@@](C)([C@@H]5N=C1[C@](C)(CCC(=O)NC[C@@H](C)OP(=O)([O-])O[C@H]1[C@@H](O)[C@@H](n6cnc7cc(C)c(C)cc76)O[C@@H]1CO)[C@H]5CC(N)=O)[C@@](C)(CC(N)=O)[C@@H]4CCC(N)=O)[C@@](C)(CC(N)=O)[C@@H]3CCC(N)=O)C(C)(C)[C@@H]2CCC(N)=O.[C-]#N.[Co+3]` the figure was inactive: -3.01%.
On to `CN(C)C1(CNC(=O)c2ccc(S(C)(=O)=O)cc2)CCCCC1`, for which the inhibition was inactive: 1.1%.
In the case of `O=[N+]([O-])c1cc([N+](=O)[O-])c(Nc2nnnn2CCO)c([N+](=O)[O-])c1`, the inhibition is inactive: -1.1%.
`CCOC(=O)C(CC)C1=NC(C)(C)Cc2ccccc21.O=[N+]([O-])c1cc([N+](=O)[O-])c(O)c([N+](=O)[O-])c1` (configuration not stated): the inhibition was inactive: 0.245%.
Consider `O=C(/C=C/c1ccccc1)OC1CN2CCC1CC2` (configuration not stated), for which the inhibition was inactive: 1.51%.
With `CN1CCCCC1COC(=O)C1(O)c2ccccc2CCc2ccccc21` (configuration not stated), the inhibition is inactive: 5.71%.
